Source: US20160101106A1, “METHODS FOR TREATING HCV INFECTION” (Inhibikase Therpeutics, Inc., priority 2013, published 2016)

System: HCVpp, Genotype 1b
Format: cell-based, HCV
Settings: ratio of EC50 and CC50 (cytotoxicity in absence of virus), > = lower limit, highest concentration tested in parentheses

| SMILES | TI |
| --- | --- |
| CC(C)(C)c1nc(-c2cccc(NS(=O)(=O)c3c(F)cccc3F)c2F)c(-c2ccnc(N)n2)s1 [GSK2118436/dabrafinib] | 1 (5 μM) |
| Cn1c(Nc2ccc(C(F)(F)F)cc2)nc2cc(Oc3ccnc(-c4ncc(C(F)(F)F)[nH]4)c3)ccc21 [Raf265] | >5.6 (5 μM) |
| CCCS(=O)(=O)Nc1ccc(F)c(C(=O)c2c[nH]c3ncc(-c4ccc(Cl)cc4)cc23)c1F [Zelboraf/PLX4032] | 1 (5 μM) |
| CNC(=O)c1cc(Oc2ccc(NC(=O)Nc3ccc(Cl)c(C(F)(F)F)c3)cc2)ccn1 [sorafenib] | >2.8 (5 μM) |
